Experimental findings from US20250144228A1, “NANOBODY-DRUG ADDUCTS AND USES THEREOF” (priority 2022, published 2025) are described below.

The test system of the test is influenza virus A/Puerto Rico/8/1934 (H1N1). Conditions: single intraperitoneal dose on day of infection; for protection from a lethal dose of influenza A virus: 2 mg/kg; for body weight change: 10 mg/kg.

B1: genetically fused VHHkappa-SD36: VHHkappa N-terminally linked to SD36 by (GGGGS)3 linker, SEQ ID NO: 5 (protein)
chain: QVQLVESGGGWVQPGGSLRLSCAASGFTFSDTAMMWVRQAPGKGREWVAAIDTGGGYTYYADSVKGRFTISRDNAKNTLYLQMNSLKPEDTARYYCAKTYSGNYYSNYTVANYGTTGRGTLVTVSSAAAGGGGSGGGGSGGGGSEVQLVESGGGLVQAGGSLKLSCAASGRTYAMGWFRQAPGKEREFVAHINALGTRTYYSDSVKGRFTISRDNAKNTEYLEMNNLKPEDTAVYYCTAQGQWRAAPVAVAAEYEFWGQGTQVTVSSGGLPETGGHHHHHH
B1: the “protection from a lethal dose of influenza A virus” value is “fully protected” and the body weight change entry is reported as “no weight loss”.

B2: VHHkappa-SD36 conjugated through click chemistry: SD36-azide conjugated to VHHkappa-DBCO through copper-free click reaction (protein)
VHH 1: QVQLVESGGGWVQPGGSLRLSCAASGFTFSDTAMMWVRQAPGKGREWVAAIDTGGGYTYYADSVKGRFTISRDNAKNTLYLQMNSLKPEDTARYYCAKTYSGNYYSNYTVANYGTTGRGTLVTVSSGG
VHH 2: EVQLVESGGGLVQAGGSLKLSCAASGRTYAMGWFRQAPGKEREFVAHINALGTRTYYSDSVKGRFTISRDNAKNTEYLEMNNLKPEDTAVYYCTAQGQWRAAPVAVAAEYEFWGQGTQVTVSSGG
With B2, the “protection from a lethal dose of influenza A virus” value is “fully protected” and the body weight change entry was “no weight loss”.
